Compound potency records, mixed from different reports. Data source: NIAID ChemDB in PubChem.

Shared fields: toxicity to cultured cells; endpoint: CC50

An empty or dashed field is not shown.

| smiles | read by | cells | result |
|---|---|---|---|
| O=c1cc(Nc2ccccc2N2CCCCC2)c2cccnc2n1O |  | HeLa | <100 µM |
| NC(=S)Nc1cccc(OCCCCCOc2cccc3cccnc23)c1 | MTS | Ava5-EG(delta4AB)SEAP | >1 µM |
| O=C(NCCc1ccc2c(n1)NCCC2)Nc1ccc(OCCN2CCOCC2)cc1 |  | PBMC | 50 µM |
| CCOC(=O)CCCCCOc1cccc(CN(C(=O)c2ccc(-c3cccnc3)cc2)C(C)C)c1 |  | BJ | >20 µM |
| NC(=S)Nc1ccc2c(c1)-c1ccccc1C2=O | MTS | Ava5-EG(delta4AB)SEAP | >1 µM |
| COC(=O)N[C@@H](Cc1ccccc1Cl)C(=O)N[C@H](CCC[C@@H](CO)N(CC(C)C)S(=O)(=O)c1ccc(CO)cc1)C1CC1 | microscopy | T lymphoid cells | >10 µM |
| CC(=O)Nc1ccc(S(=O)(=O)NCCc2ccc3c(n2)NCCC3)cc1 |  | PBMC | 50 µM |
| Nc1nc2c(ncn2CCC(CO)CO)c(=O)[nH]1 | cell count | P3HR-1 | >700 µM |
| COC(=O)N[C@H](C(=O)N[C@@H](C)CCC[C@@H](CO)N(CC(C)C)S(=O)(=O)c1ccc(N)cc1)C(c1ccccc1)c1ccccc1 | microscopy | T lymphoid cells | >10 µM |
| NC(=S)Nc1cccc(OCCCCc2ccccc2)c1 | MTS | Ava5-EG(delta4AB)SEAP | >1 µM |
| O=C(NCCc1nccc(-n2ccnc2)n1)Nc1cccc(F)c1 |  | PBMC | 50 µM |
| CC(C)C[C@@H]1NC(=O)[C@H](Cc2c[nH]c3ccccc23)NC(=O)[C@@H](CCCCN)NC(=O)[C@H](C)NC(=O)[C@H](C(C)C)NC(=O)[C@@H](CC(C)C)NC1=O | MTT | Lung carcinoma cells | >30 µM |
| CCN([C@H](CO)CCC[C@H](C)NC(=O)[C@H](Cc1ccccc1Cl)NC(=O)OC)S(=O)(=O)c1ccc(CO)cc1 | microscopy | T lymphoid cells | >10 µM |
| Cn1cc2c(NC(=O)NCCc3ccc4c(n3)NCCC4)cccc2n1 |  | PBMC | 2.7 µM |
| CCOC(=O)CCCCCOc1cccc(CN(C(=O)c2ccc(-c3cccc(NC=O)c3)cc2)C(C)C)c1 |  | RAJI | >20 µM |
| COC(=O)N[C@H](C(=O)N[C@@H](C)CCC[C@@H](CO)N(CC(C)C)S(=O)(=O)c1ccc(CO)cc1)C(c1ccccc1)c1ccccc1 | microscopy | T lymphoid cells | >10 µM |
| CC(C)N(Cc1cccc(OCCCCCC(=O)OC(=O)O)c1)C(=O)c1ccc(-c2ccc3c(c2)OCCO3)cc1 |  | BJ | >20 µM |
| O=C1N[C@@H](c2ccccc2)CNc2c1c(=O)n(O)c1ncccc21 |  | HeLa | <100 µM |
| NC(=S)Nc1cccc(OCCCOc2cccc3ccccc23)c1 | MTS | Ava5-EG(delta4AB)SEAP | >1 µM |
| N#Cc1ccc(-c2c(O)c3cccnc3n(O)c2=O)cc1 |  | HeLa | <100 µM |
| CC(C)C[C@@H]1NC(=O)[C@H](Cc2c[nH]c3ccccc23)NC(=O)C(CCCN=C(N)N)NC(=O)[C@H](CC(N)=O)NC(=O)[C@H](C(C)C)NC(=O)[C@@H](CC(C)C)NC1=O | MTT | Lung carcinoma cells | >30 µM |
| NC(=S)Nc1ccc2c(c1)Cc1cc(N(Cc3ccccc3)Cc3ccccc3)ccc1-2 | MTS | Ava5-EG(delta4AB)SEAP | >1 µM |
| NC1=NC2C(C=CN2CC(CO)CCO)C(=O)N1 | cell count | NIH 3T3 | >200 µM |
| O=C(NCCc1ccc2c(n1)NCCC2)NCCc1ccccc1F |  | PBMC | 50 µM |
| COc1ccc(-c2cc(C(=O)O)c3ccccc3n2)cc1OC |  | HEK 293 | >20 µM |
| O=c1[nH]c(=O)n([C@H]2C[C@H](O)[C@@H](CO)O2)cc1-c1ccc(Br)s1 | cell count | OMK | 257 µM |
| COc1cc2c(cc1OC)C1(CC=CCC1)N(C(C)=O)CC2 |  | RAJI | <7.5 µM |
| O=c1cc(-c2cn[nH]c2)c2cccnc2n1O |  | HeLa | <100 µM |
| Cc1cccc(NC(=O)NCC2CCc3ccccc3N2)c1 |  | PBMC | 50 µM |
| CC(C)C[C@@H]1NC(=O)[C@H](Cc2c[nH]c3ccccc23)NC(=O)CNC(=O)[C@H](CCCCN)NC(=O)[C@H](C(C)C)NC(=O)[C@@H](CC(C)C)NC1=O | MTT | Colorectal carcinoma | 22.1 µM |
| O=c1cc(-c2cnc3[nH]ccc3c2)c2cccnc2n1O |  | HeLa | <100 µM |
| COC(=O)N[C@H](C(=O)N[C@H](CCC[C@@H](CO)N(CCC(C)C)S(=O)(=O)c1ccc(CO)c(F)c1)C1CC1)C(c1ccc(F)cc1)c1ccc(F)cc1 | microscopy | T lymphoid cells | >10 µM |
| CC(C)C[C@@H]1NC(=O)[C@H](Cc2c[nH]c3ccccc23)NC(=O)[C@@H](CCCCN)NC(=O)[C@H](CC(N)=O)NC(=O)[C@H](C(C)C)NC(=O)[C@@H](CC(C)C)NC1=O | MTT | Lung carcinoma cells | >30 µM |
| O=c1[nH]c(=O)n([C@H]2C[C@H](O)[C@@H](CO)O2)cc1/C=C/Br | cell count | BCBL-1 | 138 µM |
| C=CCC1=CCCc2cc(OC)c(OC)cc21 |  | BJ | <7.5 µM |
| CCCCCCCNC(=S)Nc1ccc2c(c1)Cc1cc(Br)ccc1-2 | MTS | Ava5-EG(delta4AB)SEAP | >1 µM |
| O=C(NCCc1ccc2c(n1)NCCC2)NCc1ccc(F)c(Cl)c1 |  | PBMC | 50 µM |
| COC(=O)N[C@H](C(=O)N[C@H](CCC[C@@H](CO)N(C)S(=O)(=O)c1ccc(CO)cc1)C1CC1)C(c1ccccc1)c1ccccc1 | microscopy | T lymphoid cells | >10 µM |
| CCOC(=O)CCCCCOc1cccc(CN(C(=O)c2ccc(-c3cccc(C#N)c3)cc2)C(C)C)c1 |  | BJ | >20 µM |
| CC[C@H](C)[C@@H]1NC(=O)[C@@H](CC(C)C)NC(=O)[C@H](CC(C)C)NC(=O)[C@H](Cc2c[nH]c3ccccc23)NC(=O)CNC(=O)[C@H](CC(N)=O)NC1=O | MTT | Lung carcinoma cells | >30 µM |
| S=C(NCCc1ccc2c(n1)NCCC2)NCc1ccc(Cl)c(Cl)c1 |  | PBMC | 2.8 µM |
| CC(C)(CCOc1ccc(-c2ccccc2)cc1)CCOc1cccc(NC(N)=S)c1 | MTS | Ava5-EG(delta4AB)SEAP | >1 µM |
| CN(C(=O)NCCc1ccc2c(n1)NCCC2)C1CCCCC1 |  | PBMC | 50 µM |
| CCCN([C@H](CO)CCC[C@H](CC)NC(=O)[C@H](Cc1cccc2ccccc12)NC(=O)OC)S(=O)(=O)c1ccc(CO)cc1 | microscopy | T lymphoid cells | >10 µM |

CCn is the concentration with n% toxicity to the cells. Rows are shuffled and stem from different studies.